By UniProt entry, the sequences of proteins in these tests, tags left out. Residues count along the entry.
UniProt P19456, 2-948 R880A limits assumed: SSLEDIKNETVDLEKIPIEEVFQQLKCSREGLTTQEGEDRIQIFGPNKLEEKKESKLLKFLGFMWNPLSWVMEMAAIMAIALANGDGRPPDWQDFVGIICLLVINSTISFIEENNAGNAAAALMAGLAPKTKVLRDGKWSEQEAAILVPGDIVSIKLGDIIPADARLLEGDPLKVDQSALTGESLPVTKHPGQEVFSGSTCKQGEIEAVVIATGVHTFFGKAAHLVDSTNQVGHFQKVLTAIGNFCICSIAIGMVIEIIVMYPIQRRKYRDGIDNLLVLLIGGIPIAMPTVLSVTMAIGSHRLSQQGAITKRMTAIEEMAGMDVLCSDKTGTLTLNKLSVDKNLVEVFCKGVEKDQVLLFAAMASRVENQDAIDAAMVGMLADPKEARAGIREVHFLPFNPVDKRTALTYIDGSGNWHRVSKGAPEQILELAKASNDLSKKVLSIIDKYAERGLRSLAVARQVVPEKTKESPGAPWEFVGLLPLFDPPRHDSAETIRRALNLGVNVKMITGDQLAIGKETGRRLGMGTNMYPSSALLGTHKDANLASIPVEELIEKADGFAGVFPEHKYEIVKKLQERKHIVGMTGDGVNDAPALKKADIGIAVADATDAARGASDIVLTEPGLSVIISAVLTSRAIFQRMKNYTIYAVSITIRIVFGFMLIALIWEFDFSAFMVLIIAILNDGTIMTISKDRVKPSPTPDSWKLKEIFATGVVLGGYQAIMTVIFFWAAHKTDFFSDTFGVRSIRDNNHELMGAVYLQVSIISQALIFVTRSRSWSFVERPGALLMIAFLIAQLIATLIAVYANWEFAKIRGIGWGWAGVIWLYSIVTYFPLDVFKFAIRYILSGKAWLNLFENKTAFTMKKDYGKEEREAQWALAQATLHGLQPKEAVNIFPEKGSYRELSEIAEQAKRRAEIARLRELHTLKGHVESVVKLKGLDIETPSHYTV
UniProt P19456, 2-948 limits assumed: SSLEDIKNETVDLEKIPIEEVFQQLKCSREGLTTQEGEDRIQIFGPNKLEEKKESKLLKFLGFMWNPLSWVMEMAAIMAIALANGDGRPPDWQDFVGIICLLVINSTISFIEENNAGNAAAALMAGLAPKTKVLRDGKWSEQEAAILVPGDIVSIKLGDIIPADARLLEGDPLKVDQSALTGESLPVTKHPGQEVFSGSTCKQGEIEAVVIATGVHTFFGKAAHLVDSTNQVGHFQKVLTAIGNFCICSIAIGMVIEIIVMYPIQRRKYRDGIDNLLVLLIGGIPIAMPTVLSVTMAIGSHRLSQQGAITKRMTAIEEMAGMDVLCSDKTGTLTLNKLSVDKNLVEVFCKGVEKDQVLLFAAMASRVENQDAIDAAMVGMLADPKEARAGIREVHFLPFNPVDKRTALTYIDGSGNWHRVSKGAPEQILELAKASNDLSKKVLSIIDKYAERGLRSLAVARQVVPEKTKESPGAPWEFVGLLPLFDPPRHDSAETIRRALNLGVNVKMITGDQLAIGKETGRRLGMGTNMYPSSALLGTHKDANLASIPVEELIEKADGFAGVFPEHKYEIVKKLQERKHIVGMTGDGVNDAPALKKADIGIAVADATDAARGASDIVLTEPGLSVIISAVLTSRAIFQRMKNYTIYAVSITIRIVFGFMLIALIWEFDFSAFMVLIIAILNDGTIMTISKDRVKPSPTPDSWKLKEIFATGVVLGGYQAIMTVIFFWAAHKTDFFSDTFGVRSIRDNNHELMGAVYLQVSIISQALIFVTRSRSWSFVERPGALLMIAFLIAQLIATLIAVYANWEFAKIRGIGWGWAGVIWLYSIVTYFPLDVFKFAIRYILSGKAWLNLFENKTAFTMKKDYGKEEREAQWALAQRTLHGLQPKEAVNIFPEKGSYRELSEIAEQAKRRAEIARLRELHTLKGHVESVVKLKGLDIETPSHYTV
UniProt P19456, 2-948 R913A limits assumed: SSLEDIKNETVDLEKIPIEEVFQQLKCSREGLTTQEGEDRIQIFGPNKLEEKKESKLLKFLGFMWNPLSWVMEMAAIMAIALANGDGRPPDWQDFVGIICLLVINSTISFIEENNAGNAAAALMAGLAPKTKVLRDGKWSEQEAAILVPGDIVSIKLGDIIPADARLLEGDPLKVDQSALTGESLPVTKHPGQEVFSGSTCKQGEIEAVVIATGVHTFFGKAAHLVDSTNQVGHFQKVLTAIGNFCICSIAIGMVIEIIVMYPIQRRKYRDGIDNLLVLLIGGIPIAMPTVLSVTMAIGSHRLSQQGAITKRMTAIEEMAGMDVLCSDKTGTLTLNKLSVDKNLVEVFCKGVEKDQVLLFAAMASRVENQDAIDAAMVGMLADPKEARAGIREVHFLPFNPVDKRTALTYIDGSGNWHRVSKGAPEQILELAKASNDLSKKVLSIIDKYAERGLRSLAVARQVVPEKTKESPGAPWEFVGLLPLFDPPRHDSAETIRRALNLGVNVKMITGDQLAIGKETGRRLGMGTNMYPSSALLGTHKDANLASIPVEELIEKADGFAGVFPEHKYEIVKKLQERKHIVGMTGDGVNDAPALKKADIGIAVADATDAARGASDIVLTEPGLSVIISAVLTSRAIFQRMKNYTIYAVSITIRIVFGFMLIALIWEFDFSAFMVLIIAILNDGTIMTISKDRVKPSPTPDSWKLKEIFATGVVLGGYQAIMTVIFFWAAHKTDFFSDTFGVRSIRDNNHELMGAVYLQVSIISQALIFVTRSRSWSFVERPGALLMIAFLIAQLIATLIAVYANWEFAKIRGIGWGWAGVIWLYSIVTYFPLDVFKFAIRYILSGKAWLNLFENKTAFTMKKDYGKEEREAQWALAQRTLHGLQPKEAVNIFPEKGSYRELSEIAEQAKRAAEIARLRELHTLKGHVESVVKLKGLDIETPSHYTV

In publication PMC11002603, “The mechanism behind tenuazonic acid-mediated inhibition of plant plasma membrane H^+-ATPase and plant growth” (2024):

Legend:
aha2R880A (AHA2 mutant) = aha2R880A (AHA2 mutant) (Arabidopsis thaliana, UniProt P19456, R880A); assay: ATPase activity assay on yeast plasma-membrane fraction, […] TeA, pH […]
[1] = target: AHA2 (plant plasma membrane H^+-ATPase) (Arabidopsis thaliana, UniProt P19456); assay: ATPase activity assay on yeast plasma-membrane fraction expressing AHA2, […] TeA, pH […]
aha2R913A (AHA2 mutant) = aha2R913A (AHA2 mutant) (Arabidopsis thaliana, UniProt P19456, R913A); assay: ATPase activity assay on yeast internal-membrane fraction, […] TeA, pH […] (no inhibition in PM fraction)

## CCC(C)C1NC(=O)/C(=C(/C)O)C1=O (stereo not drawn)
aha2R880A (AHA2 mutant)
  ATPase activity assay on yeast plasma-membrane fraction, 50 uM TeA, pH 7: The inhibitory effect of TeA on the ATPase activity of aha2R880A was more pronounced than on the activity of AHA2
[1]
  % decrease in activity (50 μM): 55 % decrease in activity (50 μM)
aha2R913A (AHA2 mutant)
  % inhibition (50 μM): 91%
